Compound potency records, mixed from different reports. Data source: NIAID ChemDB in PubChem.

Shared fields: target-level tests; organism: HIV-1; protein: Reverse transcriptase; read by: nucleotide incorporation / radiometric; read-out: fold resistance

Blank or dashed fields: not listed here. Neighbouring rows are from separate reports. Two numbers with a dash give a range or band. Fold resistance has wild type as its base.

Cc1c(Cc2c(Cl)cccc2Cl)nc(SCc2cccc(C#N)c2)[nH]c1=O ; mutations: RT-181I ; result: >42
CN(C)c1nc(Cc2c(F)cccc2F)cc(=O)[nH]1 ; mutations: RT-Y181I ; strain or isolate: IIIB ; result: 37.5
Cc1cn([C@H]2CC[C@@H](COP(=O)(O)OP(=O)(O)OP(=O)(O)O)O2)c(=O)[nH]c1=O ; mutations: RT-E138A ; result: 0.9
COc1cc(CSc2nc(Cc3c(Cl)cccc3Cl)c(C)c(=O)[nH]2)cc(OC)c1 ; mutations: RT-K103N ; result: >1.56
C=C(C)CCOCc1ccc(C2(CC)Oc3ccccc3-n3cccc3C2=O)cc1 ; mutations: RT-Y188L ; result: >3.57
Cc1cc(C)cc(S(=O)(=O)c2c(C(=O)NNCCO)[nH]c3ccc(Cl)cc23)c1 ; mutations: RT-Y181I ; result: 76
Cc1c(Cc2c(Cl)cccc2Cl)nc(SCc2ccc(C(C)C)cc2)[nH]c1=O ; mutations: RT-181I ; result: ~1
Cc1cn([C@H]2C=C[C@@H](COP(=O)(O)OP(=O)(O)OP(=O)(O)O)O2)c(=O)[nH]c1=O ; mutations: RT-P225H ; result: 0.6
CCC1(c2cccc(I)c2)Oc2ccccc2-n2cccc2C1=O ; mutations: RT-K103N ; result: >200
CC(C)=CCOc1cc(NC(=S)c2ccoc2C)ccc1Cl ; mutations: RT-P225H ; result: 3.9
Nc1ccn([C@@H]2CS[C@H](COP(=O)(O)OP(=O)(O)OP(=O)(O)O)O2)c(=O)n1 ; mutations: RT-A62V V75I F77L F116Y Q151M ; result: 1.85
Cc1c(C(C)c2c(F)cccc2F)nc(N(C)C)[nH]c1=O ; mutations: RT-Y188L ; result: 7
OCc1cn(Cc2ccncc2)c(Sc2cc(Cl)cc(Cl)c2)c1C1CCC1 ; mutations: RT-L100I ; result: 14.5
CCOCn1c(Cc2ccccc2)c(C(C)C)c(=O)[nH]c1=O ; mutations: RT-P225H ; result: 4.1
CCN1c2ncc(CCOc3ccc(CCC(=O)O)c4ccccc34)cc2C(=O)N(C)c2ccc(C)nc21 ; mutations: RT-K103N Y181C ; result: 1–10
CC(C)(C)OC(=O)Cn1cnc2c(Oc3ccccc3[N+](=O)[O-])nc(NC(=O)OCc3ccccc3)nc21 ; mutations: Y188L ; strain or isolate: NNRTI-resistant ; result: 57
Cc1c(Cc2c(Cl)cccc2Cl)nc(SCc2ccc(F)cc2)[nH]c1=O ; mutations: RT-K103N ; result: >25
Nc1nc2c(ncn2[C@H]2C[C@H](O)[C@@H](COP(=O)(O)OP(=O)(O)OP(=O)(O)O)O2)c(=O)[nH]1 ; mutations: RT-L74V ; result: 0.57
C=C(CC(=O)O)c1ccc(OCCc2cnc3c(c2)C(=O)N(C)c2cccnc2N3CC)c2ccccc12 ; mutations: RT-Y188L ; result: >10
COc1ccc(CSc2nc(Cc3c(Cl)cccc3Cl)c(C)c(=O)[nH]2)cc1OC ; mutations: RT-181I ; result: >333
Nc1ncnc2c1ncn2[C@@H]1O[C@H](COP(=O)(O)OP(=O)(O)OP(=O)(O)O)C[C@@H]1F ; mutations: RT-T215Y ; result: 1.42
Cc1c(Cc2c(Cl)cccc2Cl)nc(SCc2ccc3c(c2)C(=O)c2ccccc2C3=O)[nH]c1=O ; mutations: RT-K103N ; result: >114
CC(C)=CCN1Cc2cc(Cl)cc3[nH]c(=O)n(c23)C[C@@H]1C ; mutations: RT-V106A ; result: 21
CCC1(c2cccc(Cl)c2)Cc2ccccc2-n2cccc2C1=O ; mutations: RT-L100I ; result: 3
Nc1ccn([C@H]2CC[C@@H](COP(=O)(O)OP(=O)(O)OP(=O)(O)O)O2)c(=O)n1 ; mutations: RT-K65R ; result: 5.19
COc1ccc(CSc2nc(Cc3ccc(F)cc3)c(C)c(=O)[nH]2)cc1 ; mutations: RT-K103N ; result: ~1
O=C(O)Cn1cnc2c(Oc3ccccc3[N+](=O)[O-])nc(NC(=O)OCc3ccccc3)nc21 ; mutations: K103N ; strain or isolate: NNRTI-resistant ; result: 53
CCC1(c2ccc(CNc3ccccc3)cc2)Oc2ccccc2-n2cccc2C1=O ; mutations: RT-Y181I ; result: >111
Cc1c(Cc2c(F)cccc2F)nc(N(C)C)[nH]c1=O ; mutations: RT-K103N ; strain or isolate: IIIB ; result: 12.5
CCN1c2ncc(CCOc3ccc(C(=O)O)c4ccccc34)cc2C(=O)Nc2c(C)cc(Cl)nc21 ; mutations: RT-V106A ; result: 1–10
CCC1(c2cccc(COc3ccccc3)c2)Oc2ccccc2-n2cccc2C1=O ; mutations: RT-K103N ; result: 6.125
NC(=O)OCc1cn(Cc2ccncc2)c(Sc2cc(Cl)cc(Cl)c2)c1C1CCC1 ; mutations: RT-K103N ; result: 1890
CCN1c2ncc(CCOc3ccc(/C=C(\C)C(=O)O)c4ccccc34)cc2C(=O)Nc2c(C)cc(F)nc21 ; mutations: RT-K103N Y181C ; result: 1–10
Cc1c(Cc2c(Cl)cccc2Cl)nc(SCc2ccc(C#N)cc2)[nH]c1=O ; mutations: RT-181I ; result: >3.88
CCN1c2ncc(CCOc3ccc(CC(N)=O)c4ccccc34)cc2C(=O)N(C)c2cccnc21 ; mutations: RT-Y188L ; result: >10
CCC1(c2cccc(N)c2)Oc2ccccc2-n2cccc2C1=O ; mutations: RT-K103N ; result: 6.6

The last 5 rows once more:

compound,mutations,strain or isolate,result
NC(=O)OCc1cn(Cc2ccncc2)c(Sc2cc(Cl)cc(Cl)c2)c1C1CCC1,RT-K103N,,1890
CCN1c2ncc(CCOc3ccc(/C=C(\C)C(=O)O)c4ccccc34)cc2C(=O)Nc2c(C)cc(F)nc21,RT-K103N Y181C,,1–10
Cc1c(Cc2c(Cl)cccc2Cl)nc(SCc2ccc(C#N)cc2)[nH]c1=O,RT-181I,,>3.88
CCN1c2ncc(CCOc3ccc(CC(N)=O)c4ccccc34)cc2C(=O)N(C)c2cccnc21,RT-Y188L,,>10
CCC1(c2cccc(N)c2)Oc2ccccc2-n2cccc2C1=O,RT-K103N,,6.6